{
  "source": "PubChem BioAssay AID687007",
  "about": "(The Scripps Research Institute Molecular Screening Center, 2013)",
  "note": "This is a selection; strong and weak results do not stand in their true shares. Calls of active or inactive are those of the source. Cut-off read from the data, not from the text of the source: active = inhibition above about 13%; inactive = the rest.",
  "data": [
    {"test": "Gal4-VP16 luciferase reporter inhibitors, counter-screen for COUP-TFII antagonist project, cell-based, luminescence, HEK293 (AID 687007)", "settings": "at 8.5 µM, stronger effect = higher value", "values": [
      {"smiles": "O=[N+]([O-])c1cc([N+](=O)[O-])c(Nc2ccc(Cl)cc2)c([N+](=O)[O-])c1", "inhibition": "inactive: 2.68%"}
    ]}
  ]
}
